{"source": "PubChem BioAssay AID624099 (ICCB-Longwood, 2012)", "screen": "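Knock-downs relieving repression by E2 of an HPV18 LCR luciferase reporter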 (primary screen)", "system": "human C33A cervical carcinoma cells (HPV-negative) stably expressing BPV1 E2 and an HPV18 LCR luciferase reporter", "knock-down reagent": "siRNA pool against human genes, 40 nM", "time to read-out": "72 h", "read-out": "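Per-well luciferase luminescence, z-scored on each plate against the plate mean and SD with control wells left out, then averaged across three replicate plates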", "reading the numbers": "mean z-score and z-score: higher = stronger reporter signal, weaker E2 silencing", "rule for the call": "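Hit if mean z-score reaches 2 and two or more of three replicate z-scores also reach 2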", "note": "Here is an unselected part of about 21,000 deposited reagents. 497 of all reagents (2.4%) were called active. 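Higher z means weaker E2 silencing; only reporter increases were scored, and knock-downs that hurt cell survival may mask genuine repressor factors.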"}
The first 2 records, ahead of the listing:
{"gene": "PNPLA7", "PubChem SID": "SID134314885", "mean z-score": -0.16, "z-score, replicate A": 0.08, "z-score, replicate B": -0.34, "z-score, replicate C": -0.23, "outcome": "inactive"}
{"gene": "MYOZ1", "PubChem SID": "SID134319672", "mean z-score": 0.54, "z-score, replicate A": 0.19, "z-score, replicate B": 0.07, "z-score, replicate C": 1.37, "outcome": "inactive"}

The list itself, from the start:
{"gene": "PNPLA7", "PubChem SID": "SID134314885", "mean z-score": -0.16, "z-score, replicate A": 0.08, "z-score, replicate B": -0.34, "z-score, replicate C": -0.23, "outcome": "inactive"}
{"gene": "MYOZ1", "PubChem SID": "SID134319672", "mean z-score": 0.54, "z-score, replicate A": 0.19, "z-score, replicate B": 0.07, "z-score, replicate C": 1.37, "outcome": "inactive"}
{"gene": "LOC388480 (retired record)", "PubChem SID": "SID134328875", "mean z-score": 0.52, "z-score, replicate A": 0.41, "z-score, replicate B": 0.64, "z-score, replicate C": 0.52, "outcome": "inactive"}
{"gene": "DENND5B", "PubChem SID": "SID134321303", "mean z-score": 0.03, "z-score, replicate A": -0.22, "z-score, replicate B": 0, "z-score, replicate C": 0.3, "outcome": "inactive"}
{"gene": "XYLT2", "PubChem SID": "SID134317280", "mean z-score": 0.36, "z-score, replicate A": 0.4, "z-score, replicate B": 0.62, "z-score, replicate C": 0.06, "outcome": "inactive"}
{"gene": "ZFP36L2", "PubChem SID": "SID134317823", "mean z-score": -0.69, "z-score, replicate A": -0.8, "z-score, replicate B": -0.49, "z-score, replicate C": -0.78, "outcome": "inactive"}
{"gene": "NPC1", "PubChem SID": "SID134312979", "mean z-score": -0.34, "z-score, replicate A": -0.21, "z-score, replicate B": -0.43, "z-score, replicate C": -0.37, "outcome": "inactive"}
{"gene": "INO80", "PubChem SID": "SID134310299", "mean z-score": -1.05, "z-score, replicate A": -1.14, "z-score, replicate B": -1.29, "z-score, replicate C": -0.72, "outcome": "inactive"}
{"gene": "HLTF", "PubChem SID": "SID134311790", "mean z-score": 0.03, "z-score, replicate A": 0.12, "z-score, replicate B": 0.21, "z-score, replicate C": -0.25, "outcome": "inactive"}
{"gene": "RNF103", "PubChem SID": "SID134311913", "mean z-score": 1.05, "z-score, replicate A": 1.06, "z-score, replicate B": 1.06, "z-score, replicate C": 1.02, "outcome": "inactive"}
{"gene": "LOC219690 (retired record)", "PubChem SID": "SID134328209", "mean z-score": 1.53, "z-score, replicate A": 1.29, "z-score, replicate B": 1.93, "z-score, replicate C": 1.36, "outcome": "inactive"}
{"gene": "CSAG1", "PubChem SID": "SID134321158", "mean z-score": 1.23, "z-score, replicate A": 1.05, "z-score, replicate B": 1.48, "z-score, replicate C": 1.15, "outcome": "inactive"}
{"gene": "IRS4", "PubChem SID": "SID134315815", "mean z-score": -0.42, "z-score, replicate A": -0.63, "z-score, replicate B": -0.42, "z-score, replicate C": -0.2, "outcome": "inactive"}
{"gene": "ADGRF5", "PubChem SID": "SID134310980", "mean z-score": 0.07, "z-score, replicate A": 0.11, "z-score, replicate B": 0.15, "z-score, replicate C": -0.06, "outcome": "inactive"}
